Reference: patent publication US20150119328A1

Experiments:
[1] = molecular target: Guanylate cyclase C (human), P25092
[2] = molecular target: Guanylate cyclase C (human), P25092; test: cell-based or functional assay
[3] = molecular target: Guanylate cyclase C (human), P25092; test: competitive radioligand binding, [125I]-STp displacement on intact T84 cells

B1: Peptide 1 (peptide)
peptide: CCELCCNPACTGCY
modifications: not checked
Ki [1]: 2.9 nM and 2 nM
EC50, cGMP response in T84 cells, pH 5 [2]: 13.4 nM
EC50, cGMP response in T84 cells, pH 8 [2]: 114 nM
Ratio EC50 pH 8/EC50 pH 5, cGMP response in T84 cells [2]: 8.5
Ratio Ki pH 8/Ki pH 5 [3]: 0.69

Values joined by “and” are separate entries in the source; they are usually repeats but may differ in a detail not shown here. Equal values may be shown once.
